Test results as given in paper PMC5253667.
For at least one entry, the source does not settle the construct or the ends of the probe. For some assays here: The comparison behind a weaker result is the experiment's own reference, which may not be listed here.

Legend:
[1] = target: HP1043 (HsrA) (UniProt O25684); experiment: DNase I footprinting; details: 10 mM Mg2+, 10 mM Tris-HCl pH 7.5, 50 mM NaCl, 10 mM MgCl2, 1 mM DTT, 0.01% Igepal CA-630, 10% glycerol (none for hydroxyl-radical), 300 ng salmon sperm DNA, ~15 fmol probe, 20 min, recombinant protein, protein details: N-terminal His, label: 5'-32P one strand, probe letters rebuilt from the primers and the genome, part of a longer …
[2] = target: HP1043 (HsrA) (UniProt O25684); experiment: hydroxyl-radical footprinting; details: 10 mM Mg2+, 0.8-3.3 uM dimer, two binding sites; 10 mM Tris-HCl pH 7.5, 50 mM NaCl, 10 mM MgCl2, 1 mM DTT, 0.01% Igepal CA-630, 10% glycerol (none for hydroxyl-radical), 300 ng salmon sperm DNA, ~15 fmol probe, 20 min; recombinant protein; protein details: N-terminal His; label: 5'-32P one strand; probe letters rebuilt from the primers and the genome; part of a longer …
[3] = protection saturated at 13.3 uM dimer (low affinity)

Row | Sequence | binding result [1, 3] | also measured
1 | CCCTTTCAATTGCAAAGCAAACTTTTAAGAGTGATTCAAGAAAAAGAAATCACACGCCTTGGGGATAATAAGAGCGTTAAAATTGATGTTCGTTTCATTTCCGCTACCAACGCTAACATGAAAGAAAAAATCGCTGCGAAAGAATTCAGAGAGGATTTGTTTTTCCGCTTGCAGATTGTGCCTATAACTATCGCGCCTTTAAGAGAGAGGGTTGAAGAGATCTTACCCATTGCTGAAATCAAGCTTAAAGAAGTGTGCGATGCGTATCATTTGGGGCCAAAATCCTTTTCAAAAAACGCCGCGAAACGCCTTTTAGAATACTCTTGGCATGGGAATGTGCGAGAGCTTTTAGGCGTCGTGGAGAGAGCGGCGATTTTAAGCGAAGGAGCAGAAATCCAAGAAAAAGATTTGTTTTTGGAAAGGTAGTTTGCAAGGC (double strand) [flgR intragenic (pGEM0703)] | – | binding result ([1]; protection saturated at 1.7 uM dimer (high affinity)): binds
2 | CGCTCTCATTTATTACATTGACCCTAAGGCTAAAAACGCCCATTTACCCCAGAATGTCCAATGCATTAATGAAAGCGCGGTGCATGCCATGCAAGATTTAATGCCCAAACTCATAGAAATGGCCTCTTAAGAGATGTTGAAATAATTTTTATTTTTTCAGCTAACGATTAGCAAAAACATGGTTTAATTGCTTCCATCGTTTGCTAAAAGTAATAATTAAAGGAGTTTGAGAGCCTGATGC (double strand) [PnuoA (pGEMp1260)] | binds more weakly | –
3 | GATACACCTAATCCTCTGCTATTCTACTAAAAAATAGCTTAAATTCTAATTATAAAATGAGTTTAAAATAAAATTTAAAAACCCCCATTTTTTAAAAAATAGGGTTTCAATTGTTTGCGTTTGGTAAAAACAAACC (double strand) [PrpoD HY (pGEMp0088HY)] | – | binding result [2]: binds
4 | GCCCAATCCCATAAATATAGGTAAGGGCATACTCTACTCTCTTCTTTTTTGGTAAATCTACACCAGCAATCCTTGCCATGCTTTATCCTTGTCTTTGTTTGTGTTTAGGGGTAGCGCAGATCACTCTAATAACGCCCCTTCTTTTAATGATTTTGCACTTATCGCACATCTTTTTCACTGATGGCCTGACTTTCATGATTTTTCTCCTTTGAAAAAATTAGGCACTACTAAAAACTCTTATACTAACATATTTTCATTGAAATAACCCTTAAATTATTTATATCTAAAAGTTATCCGACCCTTGTCTAAGCTATAGGGCGTAAGCTCTAGCTTGACCCTATCGCCTAAAGCAATCCTAATATAGTGCATGCGCATCTTTCCAGAAATACGGCACAACACCACATGCTTATTGTCTAACTCCACCTTAAAAGTGGCGTTAGGCAACGCCTCAATCACTTTCCCATCC (double strand) [Prpl36 (pGEMp1296)] | binds more weakly | –
5 | TTACCAAACGCAAACAATTGAAACCCTATTTTTTAAAAAATGGGGGTTTTTAAATTTTATTTTAAACTCATTTTATAATTAGAATTTAAGCTATTTTTTAGTAGAATAGCAGAGGATTAGGTGTATCTTATCTATAGACCTAGCTTTTGGTTGAAAGCATGGGTTCTTATTTTATGGAGTGTCCAATGAAAAAGAAAGCTAACGAAGAAAAAGCCCCCAAAAGAGCTAAACAGGAAGCCAAAACAGAAGCCACACAGGAAAATAAAGCTAAAG (double strand) [PrpoD (pGEMp0088)] | binds more weakly | –
